Results deposited as PubChem BioAssay AID1259414 (Drosophila RNAi Screening Center, 2018).

- Assay: 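Genome-wide screen for host control of endosymbiont load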 (primary screen)
- System: Drosophila JW18 cells infected with Wolbachia
- Reagent: long dsRNA against Drosophila genes, 0.25 µg dsRNA per well of a 384-well plate
- Time to read-out: 5 days
- Conditions: cells persistently infected with Wolbachia before knock-down; no added drug
- Measured: 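Automated imaging of bacterial rRNA staining divided by host cell count, reported as plate-normalised robust z-score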
- Direction: Wolbachia per cell robust z: higher = more Wolbachia per host cell than the plate typical
- Hit rule: 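Hit when robust z is 1.5 or more, or -1.5 or less, in at least two of three replicates; excludes dsRNAs with several or no targets, genes not expressed in JW18 and well A1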
In all, the deposit lists about 24,000 reagents; this is a random part of those with a known target gene and a result. In the full data, about 1,210 (5%) were called active. 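Inactive calls also include excluded dsRNAs with several or no targets, genes unexpressed in JW18, and well A1, regardless of score.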 The numbers tell different reagents against one gene apart. A plus sign joins genes that one reagent is predicted to hit.

| gene | reagent no. | Wolbachia per cell robust z, rep 1 | Wolbachia per cell robust z, rep 2 | Wolbachia per cell robust z, rep 3 | outcome |
| --- | --- | --- | --- | --- | --- |
| CG13299 (GeneID 38724) | 1 | 0.424 | 1.17 | -2.24 | inactive |
| ac (GeneID 30981) | 1 | -1.31 | -0.227 | -0.0823 | inactive |
| ac (GeneID 30981) | 2 | -0.573 | 0.266 | -0.435 | inactive |
| Cyp6u1 (GeneID 35608) | 1 | -0.299 | 0.727 | -1.23 | inactive |
| Cyp6u1 (GeneID 35608) | 2 | -0.776 | 0.24 | 0.148 | inactive |
| APC4 (GeneID 31835) | 1 | 0.059 | 0.105 | -4.62 | inactive |
| APC4 (GeneID 31835) | 2 | -0.15 | 0.764 | -0.923 | inactive |
| CG5440 (GeneID 33318) | 1 | 0.435 | 0.329 | -0.0254 | inactive |
| CG5440 (GeneID 33318) | 2 | -1.43 | -0.27 | -1.87 | inactive |
| Rsph4a (GeneID 37831) | 1 | -0.05 | 0.338 | 0.483 | inactive |
| Rsph4a (GeneID 37831) | 2 | -1.17 | 0.359 | 0.537 | inactive |
| CG15306 (GeneID 31961) | 1 | 0.539 | -4.96 | 0.409 | inactive |
| CG15306 (GeneID 31961) | 2 | -1.04 | -1.57 | -0.185 | inactive |
| CG15306 (GeneID 31961) | 3 | 0.216 | 0.936 | -0.142 | inactive |
| Eaat1 (GeneID 34251) | 1 | -3.78 | -1.54 | -0.366 | inactive |
| Megf8 (GeneID 34099) | 1 | -0.436 | -0.301 | -1.53 | inactive |
| Bdbt (GeneID 42503) | 1 | -0.125 | -0.264 | 0.202 | inactive |
| CG31323 (GeneID 318682) | 1 | -3.7 | 1.03 | 0.791 | inactive |
| CG32214 (GeneID 317919) | 1 | -2.05 | -2.59 | -2.42 | inactive |
| lncRNA:CR41601 (GeneID 5740627) | 1 | -0.624 | -1.58 | -0.912 | inactive |
| Rbbp5 + CR6434 | 1 | -3.13 | -0.132 | -1.97 | active |
| CG11398 (GeneID 31070) | 1 | -0.242 | -1.61 | 0.625 | inactive |
| CG13813 (GeneID 40218) | 1 | 0.05 | -0.292 | 0.488 | inactive |
| Icmt (GeneID 39478) | 1 | 0.265 | -0.061 | 0.578 | inactive |
| CG5665 (GeneID 40243) | 1 | -2.85 | 0.108 | -0.131 | inactive |
| TwdlS (GeneID 43209) | 1 | -2.33 | -0.979 | -0.721 | inactive |
| Ctr1B (GeneID 40989) | 1 | -0.45 | -2.98 | -0.866 | inactive |
| CG7991 (GeneID 38214) | 1 | 0.737 | 0.402 | -2.17 | inactive |
| CG7991 (GeneID 38214) | 2 | -0.937 | 0.187 | -4.75 | inactive |
| Nup75 (GeneID 37078) | 1 | 0.554 | 1.37 | 1.37 | inactive |
| Nup75 (GeneID 37078) | 2 | 0.805 | 0.673 | 1.89 | inactive |

Just “Wolbachia per cell robust z, rep 1”, for 3 of the entries above:
ac (GeneID 30981) #2 = -0.573
Cyp6u1 (GeneID 35608) #1 = -0.299
Cyp6u1 (GeneID 35608) #2 = -0.776

Continued:
| gene | reagent no. | Wolbachia per cell robust z, rep 1 | Wolbachia per cell robust z, rep 2 | Wolbachia per cell robust z, rep 3 | outcome |
| --- | --- | --- | --- | --- | --- |
| CG46301 (GeneID 34829) | 1 | -2.18 | -5.39 | -2.51 | inactive |
| CG46301 (GeneID 34829) | 2 | -0.0899 | -0.442 | 0.0279 | inactive |
| CG46301 (GeneID 34829) | 3 | -0.25 | -0.427 | -0.161 | inactive |
| CG46301 (GeneID 34829) | 4 | -1.23 | 0.27 | -1.25 | inactive |
| CG15296 (GeneID 31986) | 1 | 0.125 | 0.998 | -0.0806 | inactive |
| CG15296 (GeneID 31986) | 2 | 1.33 | 0.594 | 1.48 | inactive |
| Cdc14 (GeneID 34067) | 1 | -1.19 | 0.125 | 0.499 | inactive |
| Cdc14 (GeneID 34067) | 2 | -0.597 | -0.168 | 0.154 | inactive |
| Ance (GeneID 34805) | 1 | -0.559 | 1.31 | 0.309 | inactive |
| CG13847 (GeneID 42636) | 1 | 0.161 | -0.191 | -0.251 | inactive |
| atk (GeneID 40266) | 1 | -2.66 | 1.1 | 0.418 | inactive |
| atk (GeneID 40266) | 2 | 0.194 | 1.29 | -1.17 | inactive |
| atk (GeneID 40266) | 3 | 1.51 | 1.32 | 0.73 | inactive |
| CG4880 (GeneID 32680) | 1 | -5.24 | 0.414 | 0.235 | inactive |
| Srp68 (GeneID 39028) | 1 | -0.0261 | -1.19 | 0.519 | inactive |
| Srp68 (GeneID 39028) | 2 | 0.787 | 0.998 | 0.694 | inactive |
| asRNA:CR43159 + yellow-k | 1 | -1.21 | 2.11 | -0.746 | inactive |
| drm (GeneID 49638) | 1 | 0.251 | 1.1 | -0.37 | inactive |
| Nup93-2 (GeneID 41804) | 1 | -0.0432 | -5.97 | -6.81 | active |
| woc (GeneID 47249) | 1 | 0.152 | 0.265 | 1.78 | inactive |
| Mulk (GeneID 326168) | 1 | -1.07 | -7.6 | 0.789 | inactive |
| CG30471 (GeneID 246633) | 1 | 0.235 | 1.57 | 0.234 | inactive |
| cher (GeneID 42066) | 1 | -0.0773 | 1.3 | 0.11 | inactive |
| cher (GeneID 42066) | 2 | -0.943 | 1.33 | -0.249 | inactive |
| cher (GeneID 42066) | 3 | -0.0523 | 0.336 | 0.418 | inactive |
| boil (GeneID 31416) | 1 | -0.723 | 0.0764 | 0.105 | inactive |
| CG10516 (GeneID 39738) | 1 | 1.03 | -0.0555 | 0.594 | inactive |
| dgo (GeneID 36139) | 1 | -0.286 | -0.886 | -4.29 | inactive |
| dgo (GeneID 36139) | 2 | 0.518 | 1.4 | 1.35 | inactive |
| mt:CoI (GeneID 19893533) | 1 | -0.274 | -2.65 | -2.15 | inactive |
| CG12024 (GeneID 38243) | 1 | -1.5 | -0.745 | -1.71 | active |
| CG12024 (GeneID 38243) | 2 | 0.175 | -0.75 | -0.207 | inactive |
| CG12024 (GeneID 38243) | 3 | -1.8 | -0.464 | -0.15 | inactive |
| pav (GeneID 38515) | 1 | 0.97 | 0.757 | 1.37 | inactive |
| pav (GeneID 38515) | 2 | 3.7 | 4.76 | 5.12 | active |
| Gr64a (GeneID 117481) | 1 | -2.07 | 0.189 | 0.293 | inactive |
| Obp49a (GeneID 36399) | 1 | 0.545 | 0.717 | 1.32 | inactive |
| Obp49a (GeneID 36399) | 2 | 1.01 | 0.00589 | -0.593 | inactive |
